PubChem BioAssay AID1224833, University of Georgia – 2016

Test: 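Host factors restraining rotavirus as candidate antiviral genes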 (primary screen)
Cell system: monkey MA104 kidney cells
Reagents: siRNA pool against human genes, 50 nM
Timing: 48 h knock-down before infection; read 24 h after infection
Conditions: infection with rotavirus strain RV3 two days after transfection; infectious dose for this stage not given
Measurement: 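Rotavirus antigen per well by fluorescent immunoassay, normalised to non-targeting control wells on each plate and given as a standard z-score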
Reading the numbers: z-score vs non-targeting control: higher = more rotavirus replication than with non-targeting control
Call rule: In these data the active calls have z-score vs non-targeting control at about -1 or lower, or at about 1 or higher
Calls: active = z-score beyond 1 either way; inactive = z-score within 1 of zero
In all, the deposit lists about 12,000 reagents; below is a part drawn at random. About 5,600 of them (46%) count as active. 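Active calls cover z-scores past 1 in both directions, so they include lowered as well as raised rotavirus replication.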 Entries without a mark were called inactive. No sequences are given here.

gene | z-score vs non-targeting control
FARS2 (GeneID 10667) | -0.615
INMT (GeneID 11185) | 1.34 (active)
ZNF696 (GeneID 79943) | -0.544
TTC13 (GeneID 79573) | 1.07 (active)
L2HGDH (GeneID 79944) | -2.26 (active)
CGB3 (GeneID 1082) | -0.253
PEX11G (GeneID 92960) | -1.45 (active)
C8B (GeneID 732) | 1.16 (active)
SNRPN (GeneID 6638) | -3.05 (active)
FRAS1 (GeneID 80144) | -0.721
AGRP (GeneID 181) | -1.18 (active)
TMEM230 (GeneID 29058) | -0.302
GP5 (GeneID 2814) | -0.979
ACSM5 (GeneID 54988) | 2.79 (active)
MLST8 (GeneID 64223) | -0.189
HSPB9 (GeneID 94086) | -0.335
C2orf78 (GeneID 388960) | -2.6 (active)
HNF4A (GeneID 3172) | 0.53
CHCHD10 (GeneID 400916) | -1.17 (active)
SLC39A2 (GeneID 29986) | 1.08 (active)
ZBTB9 (GeneID 221504) | -1.62 (active)
CCNH (GeneID 902) | -0.578
ARL3 (GeneID 403) | -0.191
BBS1 (GeneID 582) | 0.758
S100P (GeneID 6286) | 0.781
RBBP9 (GeneID 10741) | -2.52 (active)
OR1K1 (GeneID 392392) | 0.747
ZMYND10 (GeneID 51364) | -2.49 (active)
TMEM165 (GeneID 55858) | -1.95 (active)
CD302 (GeneID 9936) | -1.42 (active)
CRLS1 (GeneID 54675) | -1.08 (active)
IGSF3 (GeneID 3321) | -2.25 (active)
RXRB (GeneID 6257) | -1.14 (active)
TSHB (GeneID 7252) | -2.57 (active)
MECR (GeneID 51102) | -1.45 (active)
BICC1 (GeneID 80114) | -0.637
RBM18 (GeneID 92400) | -0.468
HRG (GeneID 3273) | -0.128
HBG1 (GeneID 3047) | -0.591
SLC10A2 (GeneID 6555) | -1.32 (active)
ITGB6 (GeneID 3694) | 1.27 (active)
RBMXL2 (GeneID 27288) | -0.505
SMTN (GeneID 6525) | -0.393
PCID2 (GeneID 55795) | -0.606
H3C1 (GeneID 8350) | 0.819
MOGS (GeneID 7841) | 0.684
ZNF510 (GeneID 22869) | -0.344
GSKIP (GeneID 51527) | -0.701
GMPPB (GeneID 29925) | -1.77 (active)
HMCN1 (GeneID 83872) | -0.6
LMO3 (GeneID 55885) | 0.28
UBP1 (GeneID 7342) | 0.445
TWIST2 (GeneID 117581) | 1.36 (active)
SEPTIN6 (GeneID 23157) | 2.27 (active)
RPL14 (GeneID 9045) | -0.107
ATP6V1B1 (GeneID 525) | 0.832
ZBED4 (GeneID 9889) | 1.93 (active)
CLIP1 (GeneID 6249) | 1.01 (active)
IL24 (GeneID 11009) | -0.327
ZDHHC23 (GeneID 254887) | 0.816
GARNL3 (GeneID 84253) | -0.564
SCGB2A1 (GeneID 4246) | -1.74 (active)
SPIB (GeneID 6689) | -2.28 (active)
S100A12 (GeneID 6283) | -0.469
BTBD17 (GeneID 388419) | -1.75 (active)
AMIGO1 (GeneID 57463) | 1.15 (active)
CHDH (GeneID 55349) | -1.99 (active)
GPSM1 (GeneID 26086) | -1.32 (active)
IFNA16 (GeneID 3449) | -2.18 (active)
PROCA1 (GeneID 147011) | -0.341
S100A3 (GeneID 6274) | -0.569
FRMD5 (GeneID 84978) | 1.28 (active)
NDNF (GeneID 79625) | 1.73 (active)
PSMG2 (GeneID 56984) | 0.953
SLC35B4 (GeneID 84912) | -0.249
DRP2 (GeneID 1821) | -2.69 (active)
SMARCD3 (GeneID 6604) | 2.43 (active)
PLA2R1 (GeneID 22925) | -0.791
RBM3 (GeneID 5935) | -1.47 (active)
ANGPTL3 (GeneID 27329) | 0.688
DCD (GeneID 117159) | 0.251
RMDN1 (GeneID 51115) | 0.39
PDF (GeneID 64146) | 1.09 (active)
SLC25A53 (GeneID 401612) | -1.96 (active)
HAUS6 (GeneID 54801) | -2.3 (active)
NES (GeneID 10763) | 0.799
MED30 (GeneID 90390) | -1.07 (active)
UTS2 (GeneID 10911) | -1.08 (active)
CDC42SE1 (GeneID 56882) | -0.66
CHCHD7 (GeneID 79145) | -1.77 (active)
GABBR1 (GeneID 2550) | -0.591
MYH9 (GeneID 4627) | 3.03 (active)
TTC17 (GeneID 55761) | -1.93 (active)
CRYBB2 (GeneID 1415) | 0.155
ENTR1 (GeneID 10807) | -0.74
TUBAL3 (GeneID 79861) | -1.02 (active)
PCDHA10 (GeneID 56139) | -1.01 (active)
GPR85 (GeneID 54329) | 1.05 (active)
POLR1B (GeneID 84172) | -0.502
NLRP4 (GeneID 147945) | 0.723
LCE1B (GeneID 353132) | -1.52 (active)
KDM3B (GeneID 51780) | -1.06 (active)
ATP5MJ (GeneID 9556) | 0.534
MZT2A (GeneID 653784) | -0.717
NDUFV3 (GeneID 4731) | 0.0446
FCGRT (GeneID 2217) | -0.694
IL2 (GeneID 3558) | 1.22 (active)
SOX15 (GeneID 6665) | 1.59 (active)
C11orf52 (GeneID 91894) | -1.84 (active)
OTUD7A (GeneID 161725) | 0.01

Records above whose target name starts with A or a (7):
gene | z-score vs non-targeting control
AGRP (GeneID 181) | -1.18 (active)
ACSM5 (GeneID 54988) | 2.79 (active)
ARL3 (GeneID 403) | -0.191
ATP6V1B1 (GeneID 525) | 0.832
AMIGO1 (GeneID 57463) | 1.15 (active)
ANGPTL3 (GeneID 27329) | 0.688
ATP5MJ (GeneID 9556) | 0.534
